Values joined by “and” are separate entries in the source; they are usually repeats but may differ in a detail not shown here. Identical values can stand only once. This is a selection; strong and weak results do not stand in their true shares. Active and inactive are the calls of the source.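 The calls were made as follows: active = inhibition above the mean of all tested compounds plus 3 SD, set per campaign (cut at about 35% in these data); inactive = the rest.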

Drawing on PubChem BioAssay AID1800 (The Scripps Research Institute Molecular Screening Center, 2009), this text covers inhibition for 64 compounds.

The assay concerns Hepatitis C virus NS3 helicase. Put plainly: HCV NS3 DNA unwinding blockers – biochemical, Cy5 molecular beacon fluorescence, primary screen (AID 1800).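 Also: 0% = DMSO wells and 100% = thioflavine S control wells.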 The settings on record: at 10.9 µM, hits give high values. The gist of the method: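 assay system = NS3 helicase fragment of HCV | buffer or medium = MOPS pH 6.5, MgCl2, DTT, Tween20, BSA | timing = 60 min unwinding reaction at 25 °C after ATP addition | signal = Cy5 beacon fluorescence read at start and 1 h | read-out basis = % inhibition of unwinding | control set = low DMSO, high thioflavine S at 110 µM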
For `CC(=O)Nc1ccc(Oc2c([N+](=O)[O-])cc([N+](=O)[O-])cc2[N+](=O)[O-])cc1`, the inhibition (in general, the relative decrease from the control value, in per cent) was inactive: -0.44%. Then `CC(=O)Nc1ccc([As](=O)(O)O)c(O)c1`, with inactive: -4.3%; and `CC(=O)c1ccc(N2CC2c2ccncc2)cc1` (centres undefined), with inactive: -8.72%; and `CC(C)(C)C(=O)NC(Sc1ccccc1)C(Cl)(Cl)Cl` (centres undefined), with inactive: -3.5%. The result for `CCOc1ccc(C2=NCC(CBr)S2)cc1` (centres undefined) reads inactive: -40.2%; that for `O=P1(Nc2nc3ccc(Cl)cc3s2)COc2ccccc2O1` (centres undefined), inactive: 1.32%. Take `CN(C)C(=O)Oc1noc2ccccc12`: the inhibition is inactive: -1.45%. Regarding `O=c1c2cc([N+](=O)[O-])ccc2[nH]c2c([N+](=O)[O-])cc([N+](=O)[O-])cc12`, the inhibition was inactive: 8.28%. Consider `Cc1ccccc1OP(=O)(Nc1ccccn1)Oc1ccccc1C`, for which the inhibition was inactive: -1.54%. Then `Cc1ccc(OP(=O)(Nc2ccccn2)Oc2ccc(C)cc2)cc1`, with inactive: 4.67%. Take `CC(=O)NC(SC(=S)N(CC(C)C)CC(C)C)C(Cl)(Cl)Cl` (centres undefined): the inhibition was inactive: 9.4%. The result for `COC(=O)c1cc2c(s1)N=C(c1ccccc1)N(C)P2(=O)N1CCOCC1` (centres undefined) reads inactive: 5.24%; that for `CCC(=O)N1C2C3N(C(=O)CC)C1C1N(C(=O)CC)C(C(N1C(=O)CC)N3C(=O)CC)N2C(=O)CC`, inactive: 5.13%.

With `O=C(OC1CN2CCC1CC2)c1ccccc1` (centres undefined), the inhibition is inactive: 8.4%. The result for `O=C(NC1CCS(=O)(=O)C1)NP(=S)(Oc1ccccc1)Oc1ccccc1` (centres undefined) reads inactive: -5.79%. In the case of `CCNC(=S)/N=C(\N)N[N+](=O)[O-]`, the inhibition is inactive: -2.78%. Then `CCOC(=O)NC(Sc1ccccc1)C(Cl)(Cl)Cl` (centres undefined), with inactive: -2.23%; and `Cc1ccc(NP(=O)(Oc2cccc(C)c2)Oc2cccc(C)c2)nc1`, with inactive: 9.48%. The result for `c1ccc(-c2nn[nH]n2)c(-c2nn[nH]n2)c1` reads inactive: -2.48%; that for `Nc1ccc([As](=O)(O)c2ccc([N+](=O)[O-])cc2)cc1`, inactive: -5.14%; that for `C(Cc1nn[nH]n1)Cc1nn[nH]n1`, inactive: -9.12%. Regarding `O=C(OC1CN2CCC1CC2)c1cccc(Cl)c1` (centres undefined), the inhibition was inactive: -4.41%. With `O=[N+]([O-])c1ncn(CCn2cnc([N+](=O)[O-])n2)n1`, the inhibition was inactive: 18%. The result for `CC(=O)NC(SC(=S)N(C)C)C(Cl)(Cl)Cl` (centres undefined) reads inactive: -9.21%.

In the case of `O=[N+]([O-])c1ccc(O)c(/C=N/Nc2ccc([N+](=O)[O-])cc2[N+](=O)[O-])c1`, the inhibition was inactive: -11.9%. The result for `O=[As](O)(c1ccccc1)c1ccc(O)cc1` reads inactive: 3.46%; that for `O=P(Nc1nc2ccccc2s1)(c1ccccc1)c1ccccc1`, inactive: 7.46%; that for `CN(C)C1(CNC(=O)c2ccc(Cl)c(S(N)(=O)=O)c2)CCCCC1`, inactive: 7.53%. The result for `O=P(Nc1ccccn1)(c1ccc(Br)cc1)c1ccc(Br)cc1` reads inactive: 1.08%.

Regarding `c1nnnn1CCn1cnnn1`, the inhibition is inactive: -0.66%. In the case of `O=P(Nc1nccs1)(c1ccccc1)c1ccccc1`, the inhibition is inactive: 3.58%. As to `CC(C)C(=O)NC(Sc1ccccc1)C(Cl)(Cl)Cl` (centres undefined), the inhibition was inactive: -0.66%.

On to `CN(C)C(=O)OCCc1n(C)cc[n+]1C`, for which the inhibition is inactive: 0.54%. Then `CC(C)=N/N=C(\N)N[N+](=O)[O-]`, with inactive: -13%; and `CC1CCN(C(=O)Oc2c(Cl)cc(Cl)c3cccnc23)CC1`, with inactive: 23.4%. As for `C[N+]1=C2C=CC=CC=C2SC12C([N+](=O)[O-])=CC([N+](=O)[O-])=C[C-]2[N+](=O)[O-]` (centres undefined), the inhibition is active: 56.7%. The result for `Nc1ccc([As](=O)(O)c2ccc(N)cc2)cc1` reads inactive: 4.05%; that for `CCN(/C(=N/P(=O)(N1CCOCC1)N1CCOCC1)N1CCOCC1)c1ccc(OC)cc1`, inactive: 5.82%; that for `CC(=O)N1C2C3N(C(C)=O)C1C1N(C(C)=O)C(C(N1C(C)=O)N3C(C)=O)N2C(C)=O`, inactive: 3.04%.

Consider `O=[N+]([O-])c1cccc2n[nH]nc12`, for which the inhibition was inactive: 4.56%.

Turning to `O=[N+]([O-])c1cc([N+](=O)[O-])c(CCNc2ccccc2)c([N+](=O)[O-])c1`, the inhibition was inactive: 19.1%.

In the case of `CCc1nc2c(n1)c1c(non1O)c1c2no[n+]1[O-]`, the inhibition was inactive: -2.14%.

Consider `Cc1ccc(NP(=O)(Oc2ccccc2)Oc2ccccc2)nc1`, for which the inhibition was inactive: -2.83%.

As for `COc1ccc(C2=NCC(CBr)S2)cc1` (centres undefined), the inhibition was inactive: -45.8%. With `O=[N+]([O-])c1cccc(NC2=NCC(CBr)S2)c1` (centres undefined), the inhibition was inactive: 14.2%. Then `O=C(O)CNc1ccc([As](=O)(O)O)cc1`, with inactive: 1.19%; and `CC(C)(C)C(=O)NC(Sc1ccncn1)C(Cl)(Cl)Cl` (centres undefined), with inactive: -0.9%. As to `O=[N+]([O-])c1ncn(CCn2ncnc2[N+](=O)[O-])n1`, the inhibition is inactive: -6.67%. The result for `O=C(Nc1cc([As](=O)(O)O)ccc1O)c1ccccc1` reads inactive: -0.69%; that for `CCN(N=Nc1nonc1N)c1nonc1N`, inactive: -4.8%. The result for `Nc1cccc2ccc([As](=O)(O)O)cc12` reads inactive: 0.91%; that for `O=[N+]([O-])c1cc([N+](=O)[O-])c(CCN2CCOCC2)c([N+](=O)[O-])c1`, active: 36.9%. Then `Cc1ccc(NP(=O)(Oc2ccccc2F)Oc2ccccc2F)nc1`, with inactive: 5.48%; and `CCOP(=O)(Nc1ccccc1)OCC`, with inactive: 1.45% and inactive: -2.09%. As to `Cc1cc(SC(NC(=O)c2ccc(F)cc2)C(Cl)(Cl)Cl)ncn1` (centres undefined), the inhibition was inactive: 2.13%. The result for `O=C(O)c1ccccc1[As](=O)(O)O` reads inactive: 18.8%; that for `CC(=O)Nc1ccc([As](=O)(O)O)cc1`, inactive: 12.2%; that for `O=P(Nc1nc2ccc(Cl)cc2s1)(c1ccccc1)c1ccccc1`, inactive: -6.81%. Take `CC(C)CC(=O)NC(Sc1ccc(Cl)cc1)C(Cl)(Cl)Cl` (centres undefined): the inhibition was inactive: -11.9%. The result for `Nc1cc(N)c2nonc2c1[N+](=O)[O-]` reads inactive: -14.7%. Regarding `Cc1c2non([O-])c-2c(C)[n+](=O)[n+]1[O-]`, the inhibition was inactive: -0.21%. The result for `O=C(NC(Sc1ccncn1)C(Cl)(Cl)Cl)c1ccccc1` (centres undefined) reads inactive: -0.26%. Turning to `Oc1ccccc1CNc1ccccn1`, the inhibition was inactive: -3.27%.

`Cc1ccc(OP(=O)(Nc2nccs2)Oc2ccc(C)cc2)cc1`: the inhibition was inactive: 7.05%.
